Patent US6441132B1, “Contryphan peptides” (dated 2002)

System: mice (9 to 21 days old)
Assay: Bioassay by intracranial injection in mice
Conditions: High dose: 8-20 nmole/g

NCC(=O)N[C@H]1CSSC[C@@H](C(N)=O)NC(=O)[C@H](Cc2c[nH]c3ccccc23)NC(=O)[C@@H]2CCCN2C(=O)[C@H](CCC(=O)O)NC(=O)[C@@H](Cc2c[nH]c3ccccc23)NC(=O)[C@@H]2C[C@@H](O)CN2C1=O
Activity (bioactivity on intracranial injection): Paralysis of extremities, circular motion,
